Potato spindle tuber viroid, loop 15: variant abundance in plants

Values reported by Wu et al. 2024 (doi:10.1371/journal.ppat.1012142).

PSTVd intermediate strain, loop 15: wild type GGAAACCGCUACUAC, pool pattern GGAAACCGNNNNNNC; upper and lower strand joined, each 5' to 3', the first 7 letters being the upper strand, closing pairs included.

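A pool of all variants was put on leaves of three Nicotiana benthamiana plants. Samples came from the inoculated region at 5 days, the leaf margin at 10 and upper systemic leaves at 12.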

Values are reads per thousand in the sample; higher means more abundant, 0 means not found.
Each value is the mean of three plants.
"Pool" is the share in the plasmid pool used as inoculum, on the same scale.
The inoculated region was read from the minus strand, the other sites from the plus strand.
Sequences that differ at fixed positions probably stem from PCR or sequencing errors, and defective variants can be carried along by functional ones.

| sequence | pool | inoculated region | leaf margin | systemic leaves |
|---|---|---|---|---|
| GGAAACCGCUUAAGC | 0.224 | 0.137 | 0.0275 | 0.00537 |
| GGAAACCGAAUUGGC | 0.224 | 0.129 | 0 | 0 |
| GGAAACCGUUGGCCC | 0.176 | 0.0686 | 0.00668 | 0 |
| GGAAACCGGGCGGCC | 0.240 | 0.139 | 0.0121 | 0 |
| GGAAACCGAAGAUGC | 0.240 | 0.0586 | 0.00742 | 0 |
| GGAAACCGGGCUUAC | 0.192 | 0.187 | 0 | 0 |
| GGAAACCGUCCACAC | 0.160 | 0.145 | 0.00668 | 0 |
| GGAAACCGAAAGUCC | 0.224 | 0.271 | 0.130 | 0.0537 |
| GGAAACCGCGGGUGC | 0.112 | 0.360 | 0.107 | 0.0107 |
| GGAAACCGAACUAUC | 0.224 | 0.152 | 0.261 | 0 |
| GGAAACCGCGGAUAC | 0.176 | 0.329 | 0.135 | 0.0691 |
| GGAAACCGGUGCAUC | 0.240 | 0.0785 | 0.00668 | 0 |
| GGAAACCGUGGUUUC | 0.192 | 0.0891 | 0.00539 | 0 |
| GGAAACCGGGGGUUC | 0.144 | 0.0525 | 0 | 0.00537 |
| GGAAACCGCUUCCCC | 0.128 | 0.0955 | 0.00539 | 0 |
| GGAAACCGAAAGAGC | 0.192 | 0.0760 | 0.00668 | 0 |
| GGAAACCGUUCAUAC | 0.176 | 0.511 | 0.0993 | 0.0515 |
| GGAAACCGAAUGCAC | 0.304 | 0.0876 | 0 | 0 |
| GGAAACCGUAAGUGC | 0.240 | 0.331 | 0.0995 | 0.0388 |
| GGAAACCGCGAGGCC | 0.304 | 0.0695 | 0.0141 | 0.00537 |
| GGAAACCGUGGUAGC | 0.176 | 0.114 | 0.0148 | 0 |
| GGAAACCGUGUCGGC | 0.336 | 0.0985 | 0.00742 | 0 |
| GGAAACCGGCUUUCC | 0.160 | 0.0858 | 0.00668 | 0 |
| GGAAACCGAUAAUUC | 0.304 | 0.405 | 0.153 | 0.0714 |
| GGAAACCGAAAAGUC | 0.224 | 0.0669 | 0.00668 | 0.00537 |
| GGAAACCGGUGUCGC | 0.176 | 0.110 | 0.00539 | 0 |
| GGAAACCGCAAUGCC | 0.160 | 0.159 | 0.00668 | 0 |
| GGAAACCGUGUUGGC | 0.192 | 0.0975 | 0.0128 | 0 |
| GGAAACCGACUUCCC | 0.176 | 0.138 | 0.0208 | 0 |
| GGAAACCGUGGUCAC | 0.176 | 0.124 | 0 | 0.0130 |
| GGAAACCGGGGUCAC | 0.192 | 0.136 | 0.0141 | 0 |
| GGAAACCGGGUUCGC | 0.256 | 0.0929 | 0.0200 | 0 |
| GGAAACCGCGCCAUC | 0.208 | 0.0983 | 0 | 0 |
| GGAAACCGGGCCAGC | 0.176 | 0.0893 | 0 | 0 |
| GGAAACCGCUGUCAC | 0.144 | 0.0860 | 0.0208 | 0 |
| GGAAACCGCAUUUAC | 0.208 | 0.123 | 0.00539 | 0 |
| GGAAACCGCUGGUAC | 0.176 | 0.234 | 0.105 | 0.0566 |
| GGAAACCGAGACGGC | 0.144 | 0.0867 | 0 | 0 |
| GGAAACCGACCCUUC | 0.256 | 0.103 | 0.0141 | 0 |
| GGAAACCGAGAGUAC | 0.352 | 0.310 | 0.142 | 0.0322 |
| GGAAACCGGAGAAUC | 0.192 | 0.0838 | 0 | 0 |
| GGAAACCGACGUGAC | 0.224 | 0.111 | 0 | 0 |
| GGAAACCGUGCAGCC | 0.304 | 0.0858 | 0.00668 | 0.00537 |
| GGAAACCGAACCAAC | 0.272 | 0.0883 | 0.00742 | 0 |
| GGAAACCGAUAUCCC | 0.224 | 0.0920 | 0.00668 | 0 |
| GGAAACCGACCUAGC | 0.240 | 0.0813 | 0.0134 | 0 |
| GGAAACCGCUAUCUC | 0.208 | 0.395 | 0.131 | 0.0268 |
| GGAAACCGAUAUUAC | 0.240 | 0.250 | 0.135 | 0.0462 |
| GGAAACCGCGCAUUC | 0.208 | 0.327 | 0.103 | 0.0268 |
| GGAAACCGAGAAUAC | 0.304 | 0.359 | 0.140 | 0.0540 |
| GGAAACCGUUUGUGC | 0.192 | 0.317 | 0.0846 | 0.0259 |
| GGAAACCGUCUAUCC | 0.256 | 0.0941 | 0.00668 | 0 |
| GGAAACCGCUGAGAC | 0.256 | 0.0687 | 0.0208 | 0 |
| GGAAACCGUGGAACC | 0.272 | 0.0807 | 0.0364 | 0 |
| GGAAACCGGCCCCUC | 0.400 | 0.119 | 0.00668 | 0.00537 |
| GGAAACCGUAGUAAC | 0.144 | 0.282 | 0.164 | 0.00537 |
| GGAAACCGGUUGCGC | 0.288 | 0.102 | 0.0134 | 0 |
| GGAAACCGGGUCUAC | 0.176 | 0.100 | 0.0134 | 0 |
| GGAAACCGUGUAGCC | 0.224 | 0.209 | 0.0200 | 0 |
| GGAAACCGUCAGUCC | 0.320 | 0.359 | 0.127 | 0.0429 |
| GGAAACCGAGCACCC | 0.304 | 0.0984 | 0.0254 | 0 |
| GGAAACCGUGGCGAC | 0.224 | 0.0642 | 0.0108 | 0 |
| GGAAACCGGUACCCC | 0.224 | 0.0987 | 0.0295 | 0 |
| GGAAACCGGUUAUUC | 0.224 | 0.114 | 0.0187 | 0.0107 |
| GGAAACCGAGUUAAC | 0.240 | 0.193 | 0.0208 | 0.0107 |
| GGAAACCGACUAGGC | 0.256 | 0.0693 | 0 | 0 |
| GGAAACCGGAUUUCC | 0.288 | 0.0934 | 0.00742 | 0 |
| GGAAACCGAACCCCC | 0.208 | 0.108 | 0.00539 | 0.0130 |
| GGAAACCGGCUAUCC | 0.176 | 0.126 | 0 | 0 |
| GGAAACCGCCCCAAC | 0.176 | 0.109 | 0.00668 | 0.00760 |
| GGAAACCGUCGCCAC | 0.208 | 0.0857 | 0.0128 | 0 |

The first 7 entries again:

* GGAAACCGCUUAAGC (pool 0.224) = inoculated region 0.137; leaf margin 0.0275; systemic leaves 0.00537
* GGAAACCGAAUUGGC (pool 0.224) = inoculated region 0.129; leaf margin 0; systemic leaves 0
* GGAAACCGUUGGCCC (pool 0.176) = inoculated region 0.0686; leaf margin 0.00668; systemic leaves 0
* GGAAACCGGGCGGCC (pool 0.240) = inoculated region 0.139; leaf margin 0.0121; systemic leaves 0
* GGAAACCGAAGAUGC (pool 0.240) = inoculated region 0.0586; leaf margin 0.00742; systemic leaves 0
* GGAAACCGGGCUUAC (pool 0.192) = inoculated region 0.187; leaf margin 0; systemic leaves 0
* GGAAACCGUCCACAC (pool 0.160) = inoculated region 0.145; leaf margin 0.00668; systemic leaves 0

For reference, wild type rose from 33.9 per thousand in the pool to 202, 200, 159 (inoculated region), 724, 746, 710 (leaf margin) and 856, 883, 880 (systemic leaves).
With 43,870-66,106 reads a sample, very low values are single reads.